Tests used:
[1] = molecular target: T1, cell-surface expressed nucleolin (Homo sapiens, UniProt P19338); assay: cell-based; conditions: HeLaP4, read-out: inhibitory activity
T1 construct: endogenous in cells; host or cells: HeLa P4 cells

Protein sequences, listed by entry. Tags and fused reporters are not part of them. Residues count along the entry.
UniProt P19338, whole entry: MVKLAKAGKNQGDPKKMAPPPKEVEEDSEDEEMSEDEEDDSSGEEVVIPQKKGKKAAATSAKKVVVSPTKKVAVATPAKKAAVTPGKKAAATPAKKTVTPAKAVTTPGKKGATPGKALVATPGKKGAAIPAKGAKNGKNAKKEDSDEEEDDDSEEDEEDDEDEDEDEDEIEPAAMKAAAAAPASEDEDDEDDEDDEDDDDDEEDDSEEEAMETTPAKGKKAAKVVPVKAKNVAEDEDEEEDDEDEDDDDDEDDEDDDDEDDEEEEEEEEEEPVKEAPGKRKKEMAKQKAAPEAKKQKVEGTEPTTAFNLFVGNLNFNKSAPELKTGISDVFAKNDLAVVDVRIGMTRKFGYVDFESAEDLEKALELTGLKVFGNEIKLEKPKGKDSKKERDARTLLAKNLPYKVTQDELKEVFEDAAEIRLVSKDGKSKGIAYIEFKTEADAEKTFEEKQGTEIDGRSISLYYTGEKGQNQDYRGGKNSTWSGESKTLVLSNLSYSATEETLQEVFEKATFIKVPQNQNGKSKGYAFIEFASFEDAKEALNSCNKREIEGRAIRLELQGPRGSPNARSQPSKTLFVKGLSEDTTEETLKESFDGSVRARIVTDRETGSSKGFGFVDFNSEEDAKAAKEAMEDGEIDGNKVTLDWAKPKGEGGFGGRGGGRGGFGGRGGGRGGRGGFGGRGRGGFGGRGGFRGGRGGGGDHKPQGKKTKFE
UniProt P19338, 648-710 limits assumed: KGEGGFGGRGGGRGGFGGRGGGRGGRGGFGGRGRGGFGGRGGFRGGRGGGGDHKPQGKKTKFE

[2] = tested on: F. tularensis LVS; type: cell-based, Francisella tularensis
[3] = molecular target: T2, EF-Tu / RGG domain of nucleolin (Homo sapiens, UniProt P19338); type: binding, F. tularensis
T2 construct: made in house; host or cells: EF-Tu: E. coli BL21 DE3 (pET28a+); p63: chemical synthesis

[4] = tested on: F. tularensis LVS; type: cell-based, Francisella tularensis; conditions: 23 h
[5] = tested on: nucleolin; type: binding, human

| Compound | inhibition at 0.8 µM [1] | effect on LVS-GFP binding [2] | inhibition of the binding of LVS-GFP [2] | effect on binding of the biotin-labeled p63 peptide to EF-Tu [3] | decrease of infection [4] | binding of HB-19 to RGG domain alone [5] |
| --- | --- | --- | --- | --- | --- | --- |
| CC(=O)N[C@@H](CCCCNC(=O)[C@H](CCCNC(=N)N)NC(=O)[C@@H]1CCCN1C[C@@H](N)CCCCN)C(=O)NC(C)(C)C(=O)NCC(=O)N[C@@H](CCCCNC(=O)[C@H](CCCNC(=N)N)NC(=O)[C@@H]1CCCN1C[C@@H](N)CCCCN)C(=O)NC(C)(C)C(=O)NCC(=O)N[C@@H](CCCCNC(=O)[C@H](CCCNC(=N)N)NC(=O)[C@@H]1CCCN1C[C@@H](N)CCCCN)C(=O)NC(C)(C)C(=O)NCC(=O)N[C@@H](CCCCNC(=O)[C@H](CCCNC(=N)N)NC(=O)[C@@H]1CCCN1C[C@@H](N)CCCCN)C(=O)NC(C)(C)C(=O)NCC(=O)N[C@@H](CCCCNC(=O)[C@H](CCCNC(=N)N)NC(=O)[C@@H]1CCCN1C[C@@H](N)CCCCN)C(=O)NC(C)(C)C(=O)NCC(=O)N[C@@H](CCCCNC(=O)[C@H](CCCNC(=N)N)NC(=O)[C@@H]1CCCN1C[C@@H](N)CCCCN)C(=O)NC(C)(C)C(=O)NCC(N)=O [Nucant 6] | > 95% |  |  |  |  |  |
| CCCC[C@H](NC(=O)[C@H](CCCCNC(=O)[C@H](CCCNC(=N)N)NC(=O)[C@@H]1CCCN1C[C@@H](N)CCCCN)NC(=O)[C@H](CCC(=O)O)NC(=O)[C@H](CCCCNC(=O)[C@H](CCCNC(=N)N)NC(=O)[C@@H]1CCCN1C[C@@H](N)CCCCN)NC(=O)[C@@H]1CCCN1C(=O)CNC(=O)[C@H](CCCCNC(=O)[C@H](CCCNC(=N)N)NC(=O)[C@@H]1CCCN1C[C@@H](N)CCCCN)NC(=O)[C@H](CCCCN)NC(=O)[C@H](CCCCNC(=O)[C@H](CCCNC(=N)N)NC(=O)[C@@H]1CCCN1C[C@@H](N)CCCCN)NC(=O)[C@H](CCCNC(=N)N)NC(=O)[C@@H]1CCCN1C[C@@H](N)CCCCN)C(N)=O [HB-19, 5[Lys (CH2N)Pro-Arg]-template-assembled synthetic peptide] |  | no effect | 70% | markedly inhibited | 80% | sufficient for binding |
